{"sequences": {"note": "Amino acid sequences for entries named in this document (tags omitted). A change or cut given only in a name is not applied to a line headed by its entry. Residues count along the entry.", "UniProt Q9HXM5, 1-489": "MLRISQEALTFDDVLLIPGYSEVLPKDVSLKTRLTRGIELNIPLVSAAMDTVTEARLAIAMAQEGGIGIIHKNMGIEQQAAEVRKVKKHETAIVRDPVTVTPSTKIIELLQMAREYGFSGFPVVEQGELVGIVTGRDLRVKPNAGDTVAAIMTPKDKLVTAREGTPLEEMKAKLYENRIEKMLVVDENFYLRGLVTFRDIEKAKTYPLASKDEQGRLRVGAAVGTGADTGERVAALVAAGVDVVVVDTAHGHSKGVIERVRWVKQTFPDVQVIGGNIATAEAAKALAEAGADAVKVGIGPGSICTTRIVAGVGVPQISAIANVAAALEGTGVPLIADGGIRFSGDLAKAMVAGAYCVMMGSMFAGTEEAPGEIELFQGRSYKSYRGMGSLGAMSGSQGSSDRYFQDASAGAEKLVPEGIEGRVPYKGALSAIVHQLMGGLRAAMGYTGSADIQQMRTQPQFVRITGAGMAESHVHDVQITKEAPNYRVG", "UniProt A0A6L8P2U9, 1-487": "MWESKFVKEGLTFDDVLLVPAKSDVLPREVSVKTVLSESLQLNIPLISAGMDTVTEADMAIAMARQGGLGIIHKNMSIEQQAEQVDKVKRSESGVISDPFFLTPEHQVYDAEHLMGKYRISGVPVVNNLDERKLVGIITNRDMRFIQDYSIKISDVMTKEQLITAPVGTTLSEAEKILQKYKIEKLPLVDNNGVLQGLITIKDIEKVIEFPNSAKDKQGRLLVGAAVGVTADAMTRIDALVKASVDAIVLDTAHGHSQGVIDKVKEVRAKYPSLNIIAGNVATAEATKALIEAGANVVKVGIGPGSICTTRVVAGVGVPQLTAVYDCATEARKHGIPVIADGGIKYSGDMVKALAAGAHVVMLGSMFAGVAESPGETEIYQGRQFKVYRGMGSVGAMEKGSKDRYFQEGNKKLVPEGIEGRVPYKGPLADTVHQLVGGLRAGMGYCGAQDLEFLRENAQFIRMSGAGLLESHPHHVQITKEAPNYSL", "UniProt Q2SWW9, 1-486": "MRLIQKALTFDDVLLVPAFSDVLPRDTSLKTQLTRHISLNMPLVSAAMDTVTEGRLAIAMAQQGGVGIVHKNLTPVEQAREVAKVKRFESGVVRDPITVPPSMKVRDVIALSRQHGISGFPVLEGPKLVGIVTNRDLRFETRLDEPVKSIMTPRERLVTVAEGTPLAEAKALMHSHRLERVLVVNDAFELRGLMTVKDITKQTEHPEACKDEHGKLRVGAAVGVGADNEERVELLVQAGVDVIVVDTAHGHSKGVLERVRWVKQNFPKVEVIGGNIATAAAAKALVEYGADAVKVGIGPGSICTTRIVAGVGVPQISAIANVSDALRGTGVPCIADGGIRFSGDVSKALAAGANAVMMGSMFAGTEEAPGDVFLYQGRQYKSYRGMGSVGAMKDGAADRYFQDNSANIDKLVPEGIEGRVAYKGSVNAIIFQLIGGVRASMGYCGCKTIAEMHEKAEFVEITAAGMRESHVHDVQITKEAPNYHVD", "UniProt Q5ZUR9, 1-490": "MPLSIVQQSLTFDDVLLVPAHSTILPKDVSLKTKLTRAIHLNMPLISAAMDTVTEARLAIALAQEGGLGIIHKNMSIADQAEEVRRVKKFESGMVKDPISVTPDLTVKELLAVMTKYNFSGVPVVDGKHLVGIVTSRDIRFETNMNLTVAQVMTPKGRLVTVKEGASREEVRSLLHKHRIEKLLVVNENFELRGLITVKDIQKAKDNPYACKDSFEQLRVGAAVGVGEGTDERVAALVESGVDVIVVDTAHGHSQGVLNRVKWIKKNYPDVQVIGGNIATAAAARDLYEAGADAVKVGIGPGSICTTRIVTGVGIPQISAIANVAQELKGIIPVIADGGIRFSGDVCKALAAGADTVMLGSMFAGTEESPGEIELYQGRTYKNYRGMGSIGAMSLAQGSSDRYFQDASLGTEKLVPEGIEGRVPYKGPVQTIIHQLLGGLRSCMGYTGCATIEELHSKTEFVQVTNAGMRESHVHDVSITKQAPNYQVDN", "UniProt P99106": "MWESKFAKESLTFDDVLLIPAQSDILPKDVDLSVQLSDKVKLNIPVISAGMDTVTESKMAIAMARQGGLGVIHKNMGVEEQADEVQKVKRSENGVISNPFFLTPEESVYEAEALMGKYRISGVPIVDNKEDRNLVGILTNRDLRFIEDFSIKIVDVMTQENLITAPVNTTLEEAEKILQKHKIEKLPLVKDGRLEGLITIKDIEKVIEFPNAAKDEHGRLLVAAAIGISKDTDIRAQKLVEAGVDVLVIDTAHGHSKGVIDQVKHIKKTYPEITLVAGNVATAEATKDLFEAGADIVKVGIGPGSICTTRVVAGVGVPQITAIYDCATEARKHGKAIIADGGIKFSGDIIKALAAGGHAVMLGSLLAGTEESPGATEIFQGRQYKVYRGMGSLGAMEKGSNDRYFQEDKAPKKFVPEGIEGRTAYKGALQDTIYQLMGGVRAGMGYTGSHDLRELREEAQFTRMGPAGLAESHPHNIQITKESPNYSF"}, "source": "paper PMC4338043", "about": "“Two Classes of Bacterial IMPDHs according to Their Quaternary Structures and Catalytic Properties” (2015)", "key": {"[1]": {"target": "T1, IMPDHpa (Pseudomonas aeruginosa, UniProt Q9HXM5)", "settings": "IMP 7 mM, cited from earlier work"}, "[2]": {"target": "T2, IMPDHba (Bacillus anthracis, UniProt A0A6L8P2U9)", "assay": "IMPDH enzymatic assay (NADH formation), steady state kinetics", "settings": "IMP 2 mM"}, "[3]": {"target": "T3, IMPDHbt (Burkholderia thailandensis, UniProt Q2SWW9)", "assay": "IMPDH enzymatic assay (NADH formation), steady state kinetics"}, "[4]": {"target": "T4, IMPDHkp (Klebsiella pneumoniae, UniProt A6TCC3)", "assay": "IMPDH enzymatic assay (NADH formation), steady state kinetics", "settings": "IMP 1 mM"}, "[5]": {"target": "T5, IMPDHlpp (Legionella pneumophila subsp. pneumophila, UniProt Q5ZUR9)", "assay": "IMPDH enzymatic assay (NADH formation), steady state kinetics", "settings": "IMP 2 mM"}, "[6]": {"system": "IMPDHnm", "assay": "IMPDH enzymatic assay (NADH formation), steady state kinetics", "settings": "IMP 3 mM"}, "[7]": {"target": "T6, IMPDHsa (Staphylococcus aureus, UniProt P99106)", "assay": "IMPDH enzymatic assay (NADH formation), steady state kinetics", "settings": "IMP 2 mM"}, "[8]": {"target": "T2, IMPDHba", "assay": "Analytical ultracentrifugation, sedimentation velocity with substrates or effector", "settings": "enzyme 1 mg/mL (18.3 μM), IMP 10 mM, NAD 3 mM, MgATP 3 mM"}, "[9]": {"target": "T3, IMPDHbt", "assay": "Analytical ultracentrifugation, sedimentation velocity with substrates or effector", "settings": "enzyme 1 mg/mL (18.5 μM), IMP 10 mM, NAD 3 mM, MgATP 3 mM"}, "[10]": {"target": "T4, IMPDHkp", "assay": "Analytical ultracentrifugation, sedimentation velocity with substrates or effector", "settings": "enzyme 1 mg/mL (18.4 μM); IMP 10 mM, NAD 3 mM, MgATP 3 mM; higher order species also present"}, "[11]": {"target": "T5, IMPDHlpp", "assay": "Analytical ultracentrifugation, sedimentation velocity with substrates or effector", "settings": "enzyme 1 mg/mL (18.3 μM), IMP 10 mM, NAD 3 mM, MgATP 3 mM"}, "[12]": {"target": "T1, IMPDHpa", "assay": "Analytical ultracentrifugation, sedimentation velocity with substrates or effector", "settings": "enzyme 1 mg/mL (18.6 μM), IMP 10 mM, NAD 3 mM, MgATP 3 mM"}, "[13]": {"target": "T6, IMPDHsa", "assay": "Analytical ultracentrifugation, sedimentation velocity with substrates or effector", "settings": "enzyme 1 mg/mL (18.2 μM), IMP 10 mM, NAD 7 mM, MgATP 3 mM"}, "[14]": {"target": "T1, IMPDHpa", "assay": "ATP-γ-AmNS fluorescence binding", "settings": "excitation at 323 nm; ATP-γ-AmNS 1 μM, 5 mM MgCl2"}, "[15]": {"target": "T1, IMPDHpa", "assay": "IMPDH enzymatic assay (NADH formation), steady state kinetics", "settings": "non saturating concentrations of both substrates"}, "[16]": {"settings": "read-out: Km, NAD as variable substrate, without MgATP"}, "[17]": {"settings": "read-out: Km, NAD as variable substrate, with MgATP, with MgATP"}}, "note": "Several values for one entry are separate records, joined by “and”; a condition that tells them apart may be missing. Identical values can stand only once. Like-named read-outs stand apart in the source and are kept apart here.", "data": [{"compound": "NC(=O)c1ccc[n+]([C@@H]2O[C@H](COP(=O)([O-])OP(=O)(O)OC[C@H]3O[C@@H](n4cnc5c(N)ncnc54)[C@H](O)[C@@H]3O)[C@@H](O)[C@H]2O)c1", "values": [{"measurement": "Vm, NAD as variable substrate, with MgATP", "setting": "[1]; MgATP 3 mM", "value": "9.00 ± 0.5", "unit": "U/mg"}, {"measurement": "Vm, NAD as variable substrate, without MgATP", "setting": "[1]", "value": "2.26 ± 0.07", "unit": "U/mg"}, {"measurement": "Ki", "setting": "[1]; read-out: Ki, NAD as variable substrate, with MgATP, substrate inhibition by NAD, MgATP 3 mM", "value": 4.07, "unit": "mM"}, {"measurement": "Km", "setting": "[1]; read-out: Km, NAD as variable substrate, with MgATP, MgATP 3 mM", "value": 498, "unit": "µM"}, {"measurement": "Km", "setting": "[1]; [16]", "value": 139, "unit": "µM"}, {"measurement": "Vm, NAD as variable substrate, without MgATP", "setting": "[2]", "value": "6.53 ± 0.19", "unit": "U/mg"}, {"measurement": "Vm, NAD as variable substrate, with MgATP", "setting": "[2]; with MgATP", "value": "5.93 ± 0.36", "unit": "U/mg"}, {"measurement": "Km", "setting": "[2]; [17]", "value": 1990, "unit": "µM"}, {"measurement": "Km", "setting": "[2]; [16]", "value": 2210, "unit": "µM"}, {"measurement": "Vm, NAD as variable substrate, without MgATP", "setting": "[3]; IMP 1 mM", "value": "2.82 ± 0.07", "unit": "U/mg"}, {"measurement": "inhibition by excess of NAD", "setting": "[3]; IMP 1 mM (Fig 3A)", "value": "slight inhibition by excess of NAD"}, {"measurement": "Vm, NAD as variable substrate, with MgATP", "setting": "[3]; IMP 1 mM, MgATP 5 mM (Fig 3)", "value": "2.78 ± 0.14", "unit": "U/mg"}, {"measurement": "Km", "setting": "[3]; read-out: Km, NAD as variable substrate, with MgATP, IMP 1 mM, MgATP 5 mM (Fig 3)", "value": 418, "unit": "µM"}, {"measurement": "Km", "setting": "[3]; read-out: Km, NAD as variable substrate, without MgATP, IMP 1 mM", "value": 355, "unit": "µM"}, {"measurement": "Vm, NAD as variable substrate, without MgATP", "setting": "[4]", "value": "14.00 ± 0.10", "unit": "U/mg"}, {"measurement": "Vm, NAD as variable substrate, with MgATP", "setting": "[4]; with MgATP", "value": "13.80 ± 0.30", "unit": "U/mg"}, {"measurement": "Km", "setting": "[4]; [17]", "value": 1120, "unit": "µM"}, {"measurement": "Vm, NAD as variable substrate, without MgATP", "setting": "[5]; 30°C", "value": "1.88 ± 0.06", "unit": "U/mg"}, {"measurement": "Vm, NAD as variable substrate, with MgATP", "setting": "[5]; MgATP 5 mM", "value": "4.06 ± 0.19", "unit": "U/mg"}, {"measurement": "Km", "setting": "[5]; read-out: Km, NAD as variable substrate, without MgATP, 30°C", "value": 998, "unit": "µM"}, {"measurement": "Vm, NAD as variable substrate, without MgATP", "setting": "[6]", "value": "1.62 ± 0.03", "unit": "U/mg"}, {"measurement": "Vm, NAD as variable substrate, with MgATP", "setting": "[6]; MgATP 2 mM", "value": "3.48 ± 0.07", "unit": "U/mg"}, {"measurement": "Km", "setting": "[6]; read-out: Km, NAD as variable substrate, with MgATP, MgATP 2 mM", "value": 477, "unit": "µM"}, {"measurement": "Km", "setting": "[6]; [16]", "value": 269, "unit": "µM"}, {"measurement": "Vm, NAD as variable substrate, without MgATP", "setting": "[7]", "value": "11.10 ± 0.12", "unit": "U/mg"}, {"measurement": "Vm, NAD as variable substrate, with MgATP", "setting": "[7]; with MgATP", "value": "11.80 ± 0.50", "unit": "U/mg"}, {"measurement": "Km", "setting": "[7]; [16]", "value": 2350, "unit": "µM"}, {"measurement": "f/f0 of the enzyme in the presence of the ligand", "setting": "[8]", "value": 1.35}, {"measurement": "S20, W of the enzyme in the presence of the ligand", "setting": "[8]; interference", "value": "14.4 ± 0.6", "unit": "S"}, {"measurement": "f/f0 of the enzyme in the presence of the ligand", "setting": "[9]", "value": 1.30}, {"measurement": "S20, W of the enzyme in the presence of the ligand", "setting": "[9]; interference", "value": "15.5 ± 0.3", "unit": "S"}, {"measurement": "S20, W of the enzyme in the presence of the ligand", "setting": "[10]", "value": "14.9 ± 0.4", "unit": "S"}, {"measurement": "f/f0 of the enzyme in the presence of the ligand", "setting": "[10]", "value": "1.3 ^†"}, {"measurement": "f/f0 of the enzyme in the presence of the ligand", "setting": "[11]", "value": 1.25}, {"measurement": "S20, W of the enzyme in the presence of the ligand", "setting": "[11]; interference", "value": "15.9 ± 0.2", "unit": "S"}, {"measurement": "f/f0 of the enzyme in the presence of the ligand", "setting": "[12]", "value": 1.30}, {"measurement": "S20, W of the enzyme in the presence of the ligand", "setting": "[12]; interference", "value": "15.3 ± 0.1", "unit": "S"}, {"measurement": "f/f0 of the enzyme in the presence of the ligand", "setting": "[13]", "value": "1.25 and 1.40"}, {"measurement": "S20, W of the enzyme in the presence of the ligand", "setting": "[13]; interference", "value": "10.0 ± 0.6 S and 14.0 ± 0.9 S"}]}, {"compound": "Adenosine-5′-triphosphate-γ-(sulfo-1-naphtyl)amide, triethylammonium salt", "values": [{"measurement": "change of ATP-γ-AmNS fluorescence upon addition of the enzyme", "setting": "[14]", "value": "increase in fluorescence intensity as well as a shift of the emission spectrum to shorter wavelengths"}, {"measurement": "increase of IMPDHpa reaction rate (factor)", "setting": "[15]", "value": 5.6}]}]}
